Results of unrelated studies side by side (data: NIAID ChemDB).

Shared fields: whole-cell or culture tests; agent: HIV-1; measure: fold resistance

Fold resistance has wild type as its base. An empty or dashed field is not shown. Lines come from different laboratories, so protocols vary.

SMILES | changes | read by | strain | cells | value
CCN[C@H]1CO[C@@H]2OCC[C@H](OC(=O)N[C@@H](Cc3ccccc3)[C@H](O)CN(CC(C)C)S(=O)(=O)c3ccc4nc(NC5CC5)sc4c3)[C@@H]21 | L10F L33I M36I M46I I54V K55R I62V L63P A71V G73S V82T | p24 / luminescence | NL4-3 | MT-4 | 1.2
Cn1c2ccccc2c2c1cc(C#N)c(=O)n2-c1ccc([N+](=O)[O-])cc1 | RT-M41L E44D D67N T69D V118I L210W T215Y | luciferase | NRTI resistant | HeLa | 0.7
CN[C@H]1CO[C@@H]2OCC[C@H](OC(=O)N[C@@H](Cc3cccc(OC)c3)[C@H](O)CN(CC(C)C)S(=O)(=O)c3ccc4nc(NC(C)C)sc4c3)[C@@H]21 | L10F L33I M36I M46I I54V K55R I62V L63P A71V G73S V82T | p24 / luminescence | NL4-3 | MT-4 | 0.2
N#Cc1cc2[nH]c3ccccc3c2n(-c2ccc([N+](=O)[O-])cc2)c1=O | RT-K103N L100I | luciferase | NNRTI-resistant | HeLa | 3.7
Nc1ccn([C@H]2CC[C@@H](CO)O2)c(=O)n1 | RT-L210W | plaque count | JF10(RT-L210W) | HELA-CD4+ | 1.54
CCc1c(Sc2ccccn2)n(COCc2ccccc2)c(=O)[nH]c1=O | RT-L100I T139I | XTT | Costatolide-resistant (RT L100I T139I) | CEM + CEM-SS | 75
Nc1nc(=O)n([C@@H]2CS[C@H](CO)O2)cc1F | RT-M184V | plaque count | HXB2 | HT4 + HT4 LacZ-1 | >5560
COc1cc(C(F)(F)F)cc(S(=O)(=O)c2cccc(N)c2C#N)c1 | RT-V106A Y181C | β-galactosidase |  | HeLa + HELA CD4+ | 30
CCOP(=O)(COc1ccc(C[C@H](NC(=O)O[C@H]2CO[C@H]3OCC[C@H]32)[C@H](O)CN(CC(C)C)S(=O)(=O)c2ccc(OC)cc2)cc1)OCC | D437N | p24 / ELISA | IIIB | MT-2 | 1.5
Cc1cn([C@H]2C[C@H](N=[N+]=[N-])[C@@H](CO)O2)c(=O)[nH]c1=O | RT-Y181C | XTT | NL4-3 | CEM + CEM-SS | 10
CC(C)=CCN1Cc2cc(Cl)cc3[nH]c(=S)n(c23)C[C@@H]1C | RT-L74V | plaque count | HXB2 | HT4 + HT4 LacZ-1 | 1.45
COc1ccc(S(=O)(=O)N(CC(C)C)C[C@@H](O)[C@H](Cc2ccccc2)NC(=O)O[C@H]2CCO[C@H]3OC[C@H](O)[C@H]32)cc1 | L10I I15V K20R L24I V32I M36I M46I L63P K70Q V82A I84V L89M | p24 / luminescence | NL4-3 | MT-4 | 13
CCOCn1c(Cc2ccccc2)c(C(C)C)c(=O)[nH]c1=O | RT-T139K Y181C Y188D/Y | cytopathic effect | Q-1 (RT T139K Y181C Y188D/Y) | CEM | 667
Cc1cn([C@H]2C[C@H](N=[N+]=[N-])[C@@H](CO)O2)c(=O)[nH]c1=O | M200I | p24 / ELISA | IIIB | MT-2 | 1.3
Cc1cc(O)cc(S(=O)(=O)c2cccc(N)c2C#N)c1 | RT-V108I | β-galactosidase |  | HeLa + HELA CD4+ | 1.9
CN[C@H]1CO[C@@H]2OCC[C@H](OC(=O)N[C@@H](Cc3ccccc3)[C@H](O)CN(CC(C)C)S(=O)(=O)c3ccc4nc(NC5CC5)sc4c3)[C@@H]21 | L10I I15V K20R L24I V32I M36I M46I L63P K70Q V82A I84V L89M | p24 / luminescence | NL4-3 | MT-4 | 0.6
CC(C)=CCOc1cc(NC(=S)c2ccoc2C)ccc1Cl | RT-Y181C | cytopathic effect | J-2 (RT-Y181C) | CEM | 1
CC(C)CN(C[C@@H](O)[C@H](Cc1ccccc1)NC(=O)O[C@H]1CCOC1)S(=O)(=O)c1ccc(N)cc1 | L10I I15V K20R L24I V32I M36I M46I I54V I62V L63P K70Q V82A L88M | p24 / luminescence | NL4-3 | MT-4 | >27
O=c1[nH]cnc2c1ncn2[C@H]1CC[C@@H](CO)O1 | RT-D67N K70R M184V T215F K219Q | plaque count | RTMC(184) (RT D67N K70R M184V T215F K219Q) | HT4 + HT4 LacZ-1 | 2.4
CC(=O)c1ccc(C)cc1NC(C(N)=O)c1c(Cl)cccc1Cl | RT-E138K | MTT | IIIB | MAGI | 1.18
Cc1cc(S(N)(=O)=O)ccc1NC(=O)COc1ccc(Cl)cc1C(=O)c1cc(Cl)cc(C#N)c1 | RT-V106I P236L | β-galactosidase | NNRTI-resistant (RT V106I P236L) | MAGI | 13.5
Cc1ccnc2c1NC(=O)c1cccnc1N2C1CC1 | RT-D67N K70R T215Y K219Q | XTT | NL4-3(RT-4XAZT) | CEM + CEM-SS | 1
Cc1cc(Br)cc(S(=O)(=O)c2cccc(N)c2C#N)c1 | RT-K103N Y181C | β-galactosidase |  | HeLa + HELA CD4+ | >4550
CC(C)=CCN1c2cc(Cl)cc3[nH]c(=S)n(c23)C[C@@H]1C | RT-M41L T215Y K103N |  |  | MT-4 | 8
CCN(c1nc(F)ccc1NC(C)(C)C)C1CCN(C(=O)c2cc3cc(NC(=O)N4CCN(C)CC4)ccc3[nH]2)CC1 | I401T R409K D437N | p24 / ELISA | IIIB | MT-2 | 1.5
O=c1[nH]cnc2c1ncn2[C@H]1CC[C@@H](CO)O1 | RT-V118I M184V | luciferase | Recombinant | HeLa | 2.2
Cc1cc(Cl)cc(S(=O)(=O)c2cccc(N)c2C#N)c1 | RT-K103N Y181C | β-galactosidase |  | HeLa + HELA CD4+ | >5560
Cc1ccnc2c1NC(=O)c1cccnc1N2C1CC1 | RT-K103N | cytopathic effect | Y-1 (RT-K103N) | CEM | 367

Repeating the final 4 entries:

SMILES	changes	read by	strain	cells	value
CCN(c1nc(F)ccc1NC(C)(C)C)C1CCN(C(=O)c2cc3cc(NC(=O)N4CCN(C)CC4)ccc3[nH]2)CC1	I401T R409K D437N	p24 / ELISA	IIIB	MT-2	1.5
O=c1[nH]cnc2c1ncn2[C@H]1CC[C@@H](CO)O1	RT-V118I M184V	luciferase	Recombinant	HeLa	2.2
Cc1cc(Cl)cc(S(=O)(=O)c2cccc(N)c2C#N)c1	RT-K103N Y181C	β-galactosidase		HeLa + HELA CD4+	>5560
Cc1ccnc2c1NC(=O)c1cccnc1N2C1CC1	RT-K103N	cytopathic effect	Y-1 (RT-K103N)	CEM	367